Anti-infective test results gathered from many reports (values: NIAID ChemDB through PubChem).

Common to all: target-level tests

Fold resistance: result on the changed form divided by that on wild type. Two numbers with a dash give a range or band. Blank or dashed fields: not listed here. ICn: concentration for n% inhibition. Inhibition is in % at the dose shown (toxicity tests: loss of growth or viability). Neighbouring rows are from separate reports.

structure	agent	endpoint	strain or isolate	changes	protein	tested at	read by	result
Cc1nsc(-c2cn3c(c(O)c2=O)C(=O)N(Cc2cccc(Cl)c2)CC3)n1	HIV-1	IC50			Integrase		ELISA	0.01–0.1 µM
CC(C)(C)c1ccc(-n2nnnc2SCC(=O)Nc2ccc(C(=O)NCc3ccc(N)cc3)cc2Cl)c(Cl)c1	HIV-1	IC50		RT-K103 Y181C	Reverse transcriptase		PicoGreen / fluorescence	<1 µM
c1coc(-c2nnc3c4ccccc4c(N4CCc5ccccc5C4)nn23)c1	HIV-1	IC90	98US_MSC5016		Reverse transcriptase		RT activity / fluorescence	1.55 µM
Nc1ccn([C@@H]2O[C@H](CO)[C@@H](OP(=O)(O)OC[C@H]3O[C@@H](n4cnc5c(=O)[nH]c(N)nc54)[C@H](O)[C@@H]3O)[C@H]2O)c(=O)n1	HIV-1	inhibition			RNase H	50 µM	RNase H	37%
CC(C)c1ccc(-n2nnnc2SCC(=O)Nc2ccc(-c3ccc(OCCN4CCCC4)cc3)cc2Cl)c(Cl)c1	HIV-1	IC50		RT-K103 Y181C	Reverse transcriptase		PicoGreen / fluorescence	<1 µM
CC(C)(C)NC(=O)[C@H]1N(C(=O)[C@@H](O)[C@H](Cc2ccccc2)NC(=O)[C@H](CSN)NC(=O)COc2cccc3cnccc23)CSC1(C)C	HIV-1	inhibition			Protease	0.05 µM		99.1%
O=C(/C=C/c1cccn1Cc1ccccc1Cl)CC(=O)C(=O)O	HIV-1	inhibition		Y501A	RNase H	100 µM	substrate cleavage / fluorescence	20%
CC(C)(C)c1ccc(-n2nnnc2SCC(=O)Nc2ccc(-c3ccc(OCC(=O)O)cc3Cl)cc2Cl)c(Cl)c1	HIV-1	IC50		RT-K103 Y181C	Reverse transcriptase		PicoGreen / fluorescence	<1 µM
O=C(NCc1ccc(F)cc1)c1nc2n(c(=O)c1O)C(=O)N(Cc1ccccc1)CC2	HIV-1	IC50			Integrase		ELISA	<10 µM
CNC(=O)NS(=O)(=O)c1ccc(NC(=O)CSc2nnnn2-c2ccc(C3CC3)cc2Cl)c(Cl)c1	HIV-1	IC50	WT		Reverse transcriptase		PicoGreen / fluorescence	<1 µM
CN(C)C(=O)C(=O)N(C)C1CN(CC2CC2)CCn2c1nc(C(=O)NCc1ccc(F)cc1)c(O)c2=O	HIV-1	IC50			Integrase		ELISA	<10 µM
CC(C)(C)c1ccc(-n2nnnc2SCC(=O)Nc2ccc(C(=O)NCc3cccnc3)cc2Cl)c(Cl)c1	HIV-1	IC50	WT		Reverse transcriptase		PicoGreen / fluorescence	<1 µM
CC[C@@H](C)[C@H](NC(=O)[C@@H]1CCCN1C(=O)[C@@H](O)[C@H](Cc1ccccc1)NC(=O)CCc1ccccc1)C(=O)N[C@H](C(N)=O)C(C)C	HIV-1	inhibition			Protease	5 µM		25.8%
CC(=O)Nc1cc2c(cc1OC(F)(F)F)CCN(c1nn3c(C)nnc3c3ccccc13)C2	HIV-1	IC90	KER2008		Reverse transcriptase		RT activity / fluorescence	0.96 µM
Cc1ccc(Cn2cccc2/C=C/C(=O)CC(=O)C(=O)O)c(C)c1	HIV-1	IC50		Q475A	RNase H		substrate cleavage / fluorescence	3.4 µM
CCCCN(CCCC)c1nc(OCCc2ccc([N+](=O)[O-])cc2)c2ncn([C@@H]3O[C@H](COP(O)(=S)O[C@H]4[C@@H](F)[C@H](n5cnc6c(N)ncnc65)O[C@@H]4CO)[C@@H](O)[C@H]3O)c2n1	HIV-1	inhibition			RNase H	50 µM	RNase H	100%
Nc1nc2c(ncn2[C@H]2CC[C@@H](COP(=O)(O)OP(=O)(O)OP(=O)(O)O)O2)c(=O)[nH]1	HIV	fold resistance		RT-W88G	Reverse transcriptase		nucleotide incorporation / radiometric	2
CC[C@@H](C)[C@H](NC(=O)[C@@H]1CCCN1C(=O)[C@@H](O)[C@H](Cc1ccccc1)NC(=O)[C@H](CC(N)=O)NC(=O)OC(C)(C)C)C(=O)NCC(C)C	HIV-1	inhibition			Protease	5 µM		14.7%
CC(C)(C)c1ccc(-n2nnnc2SCC(=O)Nc2ccc(NC(=O)C3CCCCC3)cc2Cl)c(Cl)c1	HIV-1	IC50	WT		Reverse transcriptase		PicoGreen / fluorescence	<1 µM
CCCC(C)Nc1nc(OCCc2ccc([N+](=O)[O-])cc2)c2ncn([C@@H]3O[C@H](COP(O)(=S)O[C@H]4C[C@H](n5cnc6c(N)ncnc65)O[C@@H]4CO)[C@@H](O)[C@H]3O)c2n1	HIV-1	Ki			RNase H		RNase H	0.57 µM
Nc1ccn([C@H]2CC[C@@H](COP(=O)(O)OP(=O)(O)OP(=O)(O)O)O2)c(=O)n1	HIV	IC50		RT-M41L T215Y	Reverse transcriptase		nucleotide incorporation / radiometric	0.095 µM
CC(C)(C)c1ccc(-n2nnnc2SCC(=O)Nc2ccc(NC(=O)c3ccc(O)cc3)cc2Cl)c(Cl)c1	HIV-1	IC50	WT		Reverse transcriptase		PicoGreen / fluorescence	<1 µM
CC(=O)N1CCn2c(nc(C(=O)NCc3ccc(F)cc3)c(O)c2=O)C1	HIV-1	IC50			Integrase		ELISA	<10 µM
Cc1cc(C#CC(C)(C)NC(=O)c2cc[n+]([O-])cc2)ccc1NC(=O)CSc1nnnn1-c1ccc(C2CC2)cc1Cl	HIV-1	IC50		RT-K103 Y181C	Reverse transcriptase		PicoGreen / fluorescence	<1 µM
CC[C@@H](C)[C@H](NC(=O)C1CCCN1C(=O)[C@@H](OC)[C@H](Cc1ccccc1)NC(=O)[C@H](CC(N)=O)NC(=O)CCc1ccccc1)C(=O)N[C@H](C(N)=O)C(C)C	HIV-1	inhibition			Protease	5 µM		4.5%
CC(C)(C)c1ccc(-n2nnnc2SCC(=O)Nc2ccc(OCCN3CCOCC3)cc2Cl)c(Cl)c1	HIV-1	IC50		RT-K103 Y181C	Reverse transcriptase		PicoGreen / fluorescence	<1 µM
Cc1nnc2c3ccccc3c(N3CCc4ccccc4C3)nn12	HIV-1	IC90	IIIB		Reverse transcriptase		RT activity / fluorescence	0.31 µM
Nc1ccn([C@H]2CC[C@@H](COP(=O)(O)OP(=O)(O)OP(=O)(O)OP(=O)(O)OC[C@@H]3CC[C@H](n4ccc(N)nc4=O)O3)O2)c(=O)n1	HIV	IC50		RT-W88G	Reverse transcriptase		nucleotide incorporation / radiometric	9.2 µM
O=C1c2c(O)c(=O)c(-c3nccs3)cn2CCN1Cc1ccc(F)cc1	HIV-1	IC50			Integrase		ELISA	0.01–0.1 µM
Nc1nc2c(ncn2[C@@H]2O[C@H](COCO[C@H]3[C@@H](O)[C@H](n4cnc5c(=O)[nH]c(N)nc54)O[C@@H]3CO)[C@@H](O)[C@H]2O)c(=O)[nH]1	HIV-1	inhibition			RNase H	50 µM	RNase H	65%
CC(C)(C)OC(=O)N[C@@H](CO)C(=O)N[C@@H](Cc1ccccc1)[C@@H](O)C(=O)NCC1CCCCC1	HIV-1	inhibition			Protease	1000 µM		17.1%
Nc1nc2c(ncn2[C@H]2CC[C@@H](COP(=O)(O)OP(=O)(O)OP(=O)(O)OP(=O)(O)OC[C@@H]3CC[C@H](n4cnc5c(=O)[nH]c(N)nc54)O3)O2)c(=O)[nH]1	HIV	IC50		RT-M41L T215Y	Reverse transcriptase		nucleotide incorporation / radiometric	0.39 µM
CN1CCN(S(=O)(=O)N(C)C2COCCn3c2nc(C(=O)NCc2ccc(F)cc2)c(O)c3=O)CC1	HIV-1	IC50			Integrase		ELISA	<10 µM
Nc1ncnc2c1ncn2[C@H]1CC[C@@H](COP(=O)(O)OP(=O)(O)OP(=O)(O)O)O1	HIV	fold resistance		RT-L74V T215Y	Reverse transcriptase			5
Nc1ncnc2c1ncn2[C@H]1CC[C@@H](COP(=O)(O)OP(=O)(O)OP(=O)(O)OP(=O)(O)OC[C@@H]2CC[C@H](n3cnc4c(N)ncnc43)O2)O1	HIV	IC50		RT-K65R	Reverse transcriptase		nucleotide incorporation / radiometric	>36 µM
CN(C)C(=O)C(=O)N1CCN2CCn3c(nc(C(=O)NCc4ccc(F)cc4)c(O)c3=O)C1C2	HIV-1	IC50			Integrase		ELISA	<10 µM
CC(C)(C#Cc1ccc(NC(=O)CSc2nnnn2-c2ccc(C3CC3)cc2Cl)c(Cl)c1)NC(=O)CCC(=O)O	HIV-1	IC50	WT		Reverse transcriptase		PicoGreen / fluorescence	<1 µM
CC(C)=CCN1Cc2cccc3[nH]c(=S)n(c23)C[C@@H]1C	HIV	IC50		RT-Y271S	Reverse transcriptase		nucleotide incorporation	67.5 µM
CC(C)=CCC/C(C)=C/CC/C(C)=C/CC/C(C)=C/CC/C(C)=C/CC/C(C)=C/Cc1cc(O)ccc1O	HIV-2	IC90			Reverse transcriptase		nucleotide incorporation	4.3 µM
NOCc1c(F)cccc1Cl	HIV-1	inhibition			gp120	4 µg/mL	ELISA	10%
CCOC(=O)C(=O)CC(=O)/C=C/c1cc(-c2ccccc2)cn1Cc1ccc(F)cc1	HIV-1	IC50		R557A	RNase H		substrate cleavage / fluorescence	50 µM
Cc1cn([C@H]2CC[C@@H](COP(=O)(O)OP(=O)(O)OP(=O)(O)O)O2)c(=O)[nH]c1=O	HIV	fold resistance		RT-T215Y	Reverse transcriptase			9.55
O=C(O)Cc1ccc(-c2ccc(NC(=O)CSc3nnnn3-c3ccc(C4CC4)cc3Cl)c(Cl)c2)cc1	HIV-1	IC50	WT		Reverse transcriptase		PicoGreen / fluorescence	<1 µM
Nc1nc2c(ncn2[C@@H]2O[C@H](COP(=O)(O)O[C@H]3[C@@H](O)[C@H](n4cnc5c(=O)[nH]c(N)nc54)O[C@@H]3CO)[C@@H](O)[C@H]2O)c(=O)[nH]1	HIV-1	inhibition			RNase H	50 µM	RNase H	65%
CC(C)(C#Cc1ccc(NC(=O)CSc2nnnn2-c2ccc(C3CC3)cc2Cl)c(Cl)c1)NC(=O)N1CCNCC1	HIV-1	IC50	WT		Reverse transcriptase		PicoGreen / fluorescence	<1 µM
O=c1ccn2ccn(Cc3ccc(Cl)cc3)c(=O)c2c1O	HIV-1	IC50			Integrase		ELISA	0.01–0.1 µM
FC(F)(F)Cc1nnc2c3ccccc3c(N3CCc4ccccc4C3)nn12	HIV-1	IC90	IIIB		Reverse transcriptase		RT activity / fluorescence	2.58 µM
CCCCN(CCCC)c1nc(OCCc2ccc([N+](=O)[O-])cc2)c2ncn([C@@H]3O[C@H](COP(O)(O)=S)[C@@H](O)[C@H]3O)c2n1	HIV-1	Ki			RNase H		RNase H	10 µM
CC(C)(C#Cc1ccc(NC(=O)CSc2nnnn2-c2ccc(C3CC3)cc2Cl)c(Cl)c1F)C(=O)O	HIV-1	IC50	WT		Reverse transcriptase		PicoGreen / fluorescence	<1 µM
CC(=O)Nc1ccc2c(c1)CN(c1nn3c(C)nnc3c3ccccc13)CC2	HIV-1	IC90	KER2008		Reverse transcriptase		RT activity / fluorescence	20 µM
COc1ccc(N2CCN(NC(=O)c3ccc(C(F)(F)F)nc3Nc3cc(Cl)ccc3C)CC2)cc1	HIV-1	IC50			RNase H		RNase H / absorbance	20.8 µM
CC(C)[C@H](N)C(=O)N[C@H](C(=O)N[C@@H](Cc1ccccc1)[C@H](O)C(=O)N(CC(=O)N[C@H](C(=O)N[C@H](C(N)=O)C(C)C)C(C)C)Cc1ccccc1)C(C)C	HIV-1	inhibition			Protease	1000 µM		69.6%
Nc1nc2c(ncn2[C@@H]2O[C@H](COCO[C@@H]3[C@H](O)[C@@H](CO)O[C@H]3n3cnc4c(N)ncnc43)[C@@H](O)[C@H]2O)c(=O)[nH]1	HIV-1	inhibition			RNase H	50 µM	RNase H	5%
CC(C)(C)c1ccc(-n2nnnc2SCC(=O)Nc2ccc(-c3ccc(OCCN4CC[C@H](O)C4)cc3)cc2Cl)c(Cl)c1	HIV-1	IC50		RT-K103 Y181C	Reverse transcriptase		PicoGreen / fluorescence	<1 µM
CC1(C)NC(=O)Cn2c1nc(C(=O)NCc1ccc(F)cc1)c(O)c2=O	HIV-1	IC50			Integrase		ELISA	<10 µM
CC(C)=CCN1Cc2cccc3[nH]c(=S)n(c23)C[C@@H]1C	HIV	Ki			Reverse transcriptase		nucleotide incorporation	0.55 µM
Cc1ccc(Cl)cc1Nc1nc(C(F)(F)F)ccc1C(=O)NN1CCN(c2cccc(Cl)c2)CC1	HIV-1	fold resistance		Q475A	RNase H		RNase H / absorbance	>5.5
CC1(C)CN(CCOC(C)(C)C#Cc2ccc(NC(=O)CSc3nnnn3-c3ccc(C4CC4)cc3Cl)c(Cl)c2)C=N1	HIV-1	IC50		RT-K103 Y181C	Reverse transcriptase		PicoGreen / fluorescence	<1 µM
Nc1ccn([C@@H]2CS[C@H](COP(=O)(O)OP(=O)(O)OP(=O)(O)O)O2)c(=O)n1	HIV	Ki		RT-K65R	Reverse transcriptase		radiometric	0.886 µM
Cc1nnc2c3ccccc3c(N3CCc4c(F)cccc4C3)nn12	HIV-1	IC90	KER2008		Reverse transcriptase		RT activity / fluorescence	8.5 µM
O=c1ccn(C2OC(COP(=O)(O)OC3C(CO)OC(n4ccc(=O)[nH]c4=O)C3O)C(O)C2O)c(=O)[nH]1	HIV-1	inhibition			RNase H	50 µM	RNase H	3%
CCOC(=O)C(=O)CC(=O)/C=C/c1cccn1Cc1ccc(C)cc1C	HIV-1	IC50		N474A	RNase H		substrate cleavage / fluorescence	>100 µM
CC(C)(C)c1ccc(-n2nnnc2SCC(=O)Nc2ccc(NC(=O)NCc3ccccc3)cc2Cl)c(Cl)c1	HIV-1	IC50	WT		Reverse transcriptase		PicoGreen / fluorescence	<1 µM
O=c1c(-c2cncs2)cn2ccn(Cc3cccc(Cl)c3)c(=O)c2c1O	HIV-1	IC50			Integrase		ELISA	<0.01 µM
CC(C)(O)C#Cc1ccc(NC(=O)CSc2nnnn2-c2ccc(C3CC3)cc2Cl)c(Br)c1	HIV-1	IC50		RT-K103 Y181C	Reverse transcriptase		PicoGreen / fluorescence	<1 µM
O=C(/C=C/c1cccn1Cc1ccc(F)cc1)CC(=O)C(=O)O	HIV-1	IC50		Q475A	RNase H		substrate cleavage / fluorescence	5.5 µM
Cc1cc(C)c(-n2nnnc2SCC(=O)Nc2ccc(-c3ccc(CC(=O)O)cc3)cc2Cl)c(Cl)c1	HIV-1	IC50	WT		Reverse transcriptase		PicoGreen / fluorescence	<1 µM
COc1ccnc2[nH]cc(C(=O)C(=O)N3CCN(C(=O)c4ccccc4)C[C@H]3C)c12	HIV-1	fold resistance	LAI	GP120-M475I	gp120		ELISA	83
Cc1cc(C(F)(F)F)cc(-n2nnnc2SCC(=O)Nc2ccc(C#CC(C)(C)O)cc2Cl)c1Cl	HIV-1	IC50	WT		Reverse transcriptase		PicoGreen / fluorescence	<1 µM
c1ccc2c(c1)CCN(c1nn3c(-c4ccsc4)nnc3c3ccccc13)C2	HIV-1	IC90	98US_MSC5016		Reverse transcriptase		RT activity / fluorescence	61.4 µM